# Data reported in PubChem BioAssay AID1117319 (Southern Research Institute, 2015).
# Chains of the proteins cited; added tags and fusions are not shown. Lines headed by an entry give the natural chain unless they say otherwise; changes in a name come on top.
# UniProt P69720: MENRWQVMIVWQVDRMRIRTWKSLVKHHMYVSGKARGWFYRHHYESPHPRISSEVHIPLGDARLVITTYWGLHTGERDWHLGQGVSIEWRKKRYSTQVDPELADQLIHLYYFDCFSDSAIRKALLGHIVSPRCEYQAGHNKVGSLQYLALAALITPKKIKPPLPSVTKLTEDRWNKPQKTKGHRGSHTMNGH
# UniProt P69721: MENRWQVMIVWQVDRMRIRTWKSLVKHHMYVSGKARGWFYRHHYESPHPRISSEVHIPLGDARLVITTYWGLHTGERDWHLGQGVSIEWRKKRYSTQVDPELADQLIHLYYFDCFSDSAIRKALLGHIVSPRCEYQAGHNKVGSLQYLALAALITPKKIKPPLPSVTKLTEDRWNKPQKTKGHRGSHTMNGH
# UniProt P69722: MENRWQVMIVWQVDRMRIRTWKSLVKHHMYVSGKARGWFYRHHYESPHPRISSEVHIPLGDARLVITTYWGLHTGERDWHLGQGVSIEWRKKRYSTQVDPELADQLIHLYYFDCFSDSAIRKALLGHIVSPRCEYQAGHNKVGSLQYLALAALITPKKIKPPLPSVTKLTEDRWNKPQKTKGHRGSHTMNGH
# UniProt P69723: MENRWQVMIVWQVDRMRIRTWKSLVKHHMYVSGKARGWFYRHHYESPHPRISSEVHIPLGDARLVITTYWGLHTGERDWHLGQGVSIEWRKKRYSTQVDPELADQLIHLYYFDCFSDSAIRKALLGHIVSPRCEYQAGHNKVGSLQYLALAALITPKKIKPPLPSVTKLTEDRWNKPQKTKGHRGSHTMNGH
# UniProt Q9HC16: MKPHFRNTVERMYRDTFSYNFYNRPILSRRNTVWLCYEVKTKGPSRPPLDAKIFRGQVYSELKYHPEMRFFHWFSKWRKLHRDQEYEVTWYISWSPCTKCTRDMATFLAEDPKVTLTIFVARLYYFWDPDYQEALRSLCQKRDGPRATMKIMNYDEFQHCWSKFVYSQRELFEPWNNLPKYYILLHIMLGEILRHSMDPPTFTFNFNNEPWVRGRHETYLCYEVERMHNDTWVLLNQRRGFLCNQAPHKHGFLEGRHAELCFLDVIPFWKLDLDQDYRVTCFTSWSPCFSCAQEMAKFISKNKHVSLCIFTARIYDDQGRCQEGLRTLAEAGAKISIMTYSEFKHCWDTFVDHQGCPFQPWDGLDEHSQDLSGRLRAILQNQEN
# Several values for one entry are separate records, joined by “and”; a condition that tells them apart may be missing. Identical values can stand only once. This is one part of the list. Records with an inconclusive call do not appear. Activity calls are given as the source filed them.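 How the source made its calls: active means inhibition above a set limit at one or more doses, reproduced on every date tested; inconclusive means results disagree between test dates, or hit never tested in dose response; inactive means the rest.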
# Target: Virion infectivity factor (Human immunodeficiency virus type 1 group M subtype B (isolate BH10)) + Virion infectivity factor (Human immunodeficiency virus type 1 group M subtype B (isolate BRU/LAI)) + Virion infectivity factor (Human immunodeficiency virus type 1 group M subtype B (isolate PCV12)) + Virion infectivity factor (Human immunodeficiency virus type 1 group M subtype B (isolate HXB2)) + DNA dC->dU-editing enzyme APOBEC-3G (Homo sapiens) (UniProt P69720+P69721+P69722+P69723+Q9HC16)
# Assay: HIV-1 Vif–A3G interaction blockers – biochemical, TR-FRET, GST-Vif 1-94, biotin-A3G peptide, dose response retest, primary screen (AID 1117319);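 further: Vif residues 1-94 fused to GST binding biotinylated APOBEC3G peptide 110-148; 0% = full assay without inhibitor and 100% = GST in place of GST-Vif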
# Settings: TR-FRET GST-Vif / biotin-A3G peptide binding; hits give high values
row,SMILES,inhibition
1,Cc1c2c(nc3ccccc13)SC(C(Cl)Cl)C2 (stereo unspecified),inactive: -8.21%
2,Cc1cc(=O)[nH]c(N[N+](=O)[O-])n1,inactive: 9.72%
3,O=C(OC1CN2CCC1CC2)C12CC3CC(CC(C3)C1)C2 (stereo unspecified),inactive: -8.17%
4,O=P1(N(CCCl)CCCl)Nc2ccccc2N1,inactive: -3.86%
5,COc1cc(I)ccc1[As](=O)(O)O,inactive: 31.1%
6,COc1ccc2nc(NP(=O)(c3ccccc3)c3ccccc3)sc2c1,inactive: -2%
7,O=[N+]([O-])c1cc(Oc2ccc([N+](=O)[O-])cc2C(F)(F)F)cc([N+](=O)[O-])c1,inactive: 2.67%
8,COc1ccc(N/C(=N/P(=O)(N2CCOCC2)N2CCOCC2)N2CCOCC2)cc1,inactive: 22.7%
9,O=[N+]([O-])c1ccc(-c2cc([N+](=O)[O-])c(O)c([N+](=O)[O-])c2)cc1,inactive: 9.62%
10,COc1cc(C(=O)NCC2(N3CCOCC3)CCCCC2)ccc1OCC(C)C,inactive: -7.47%
11,O=[As](O)(c1ccc(O)cc1)c1ccccc1O,inactive: 9.53%
12,Cc1ccc(OP(=O)(Nc2ccc([N+](=O)[O-])cn2)Oc2ccc(C)cc2)cc1,inactive: 3.68%
13,ClCCSc1nnc(-c2cccnc2)o1,inactive: -0.69%
14,COC(=O)C1(C)COP(=O)(N2CCCCCC2)OC1 (stereo unspecified),inactive: -10%
15,CC(C)c1ccc(OP(=O)(Nc2ccccn2)Oc2ccccc2F)cc1 (stereo unspecified),inactive: -4.77%
16,O=[N+]([O-])c1cc([N+](=O)[O-])c(-c2ccn[nH]2)s1,inactive: 16.2%
17,CC(C)NC(=O)NP(=O)(Oc1ccccc1)Oc1ccccc1,inactive: 17.4%
18,O=C(OC1CN2CCC1CC2)c1cccc2[nH]cnc12 (stereo unspecified),inactive: -2.11%
19,CCN(CC)C(=S)SC(NC=O)C(Cl)(Cl)Cl (stereo unspecified),inactive: -5.82%
20,O=C(O)C(O)c1ccc(N(CCCl)CCCl)cc1 (stereo unspecified),inactive: -1.77%
21,CCOC(=O)Nc1ccc([As](=O)(O)O)c(O)c1,inactive: -10.2%
22,CC1CCNP(=O)(N(CCCl)CCCl)O1 (stereo unspecified),inactive: -14.9%
23,COP(=O)(OC)N1CC1c1ccccc1 (stereo unspecified),inactive: -5.25%
24,CCOC(=O)Nc1cccc([As](=O)(O)O)c1,inactive: 3.68%
25,Cc1cc(SC(NC=O)C(Cl)(Cl)Cl)ncn1 (stereo unspecified),inactive: 13.5%
26,O=P(Nc1ccccn1)(c1cccc2ccccc12)c1cccc2ccccc12,inactive: 7.11%

row,SMILES,inhibition
1,COP1(=S)c2c(C)nn(CCC#N)c2N=C(c2ccc(F)cc2)N1C (stereo unspecified),inactive: 2.03%
2,O=C(Nc1ccncc1[N+](=O)[O-])c1ccc([N+](=O)[O-])cc1[N+](=O)[O-],inactive: -1.44%
3,O=C(COc1ccccc1)OC1CN2CCC1CC2 (stereo unspecified),inactive: -7.4%
4,CSc1ccc(Nc2c([N+](=O)[O-])cc([N+](=O)[O-])cc2[N+](=O)[O-])cc1,inactive: 7%
5,O=C(OC1CN2CCC1CC2)c1cccc([N+](=O)[O-])c1 (stereo unspecified),inactive: 3.33%
6,CCC(C)N(CC(C)C)C(=S)SC(NC(C)=O)C(Cl)(Cl)Cl (stereo unspecified),inactive: -7.95%
7,CCOP(=O)(NC(=NC(C)c1ccccc1)NC(C)c1ccccc1)OCC (stereo unspecified),inactive: 0.3%
8,O=P1(Nc2ccccn2)COc2ccccc2OC1,inactive: -1.5%
9,CCOP(=O)(Nc1ccc(C)cn1)OCC,inactive: -0.64%
10,CC(C)(C)C(=O)NC(Sc1ncccn1)C(Cl)(Cl)Cl (stereo unspecified),inactive: -14.8%
11,Clc1n[nH]nc1-c1nn[nH][15n]1,inactive: 7.93%
12,O=P1(N(CCCl)CCCl)NCCC(C(F)(F)F)O1 (stereo unspecified),inactive: -2.74%
13,COc1ccccc1CNC(=O)COC(=O)C(O)(c1ccccc1)c1ccccc1,inactive: -0.63%
14,CN(C(=O)Cc1ccc(Cl)c(Cl)c1)[C@@H]1CCCC[C@H]1N1CCCC1,inactive: -11.2%
15,CC(C)/C=N\N=C(\N)N[N+](=O)[O-],inactive: 3.2%
16,CC1(CBr)Cn2c(nc3ccccc3c2=O)S1 (stereo unspecified),inactive: -1.5%
17,O=[As](O)(c1ccccc1Br)c1ccccc1Br,inactive: -5.37%
18,Cc1ccc(C(=O)OC2CN3CCC2CC3)cc1 (stereo unspecified),inactive: -5.29%
19,CC1CCC(C(C)C)C(OP(=O)(Nc2ccccn2)c2ccccc2)C1 (stereo unspecified),inactive: 1.83%
20,Cc1nn(-c2ccccc2)c2c1P(=O)(N1CCOCC1)N(C)C(c1ccccc1)=N2 (stereo unspecified),inactive: -3.13%
21,CN(C)C1(CNC(=O)c2ccc(S(C)(=O)=O)cc2)CCCCC1,inactive: 26.4%
22,CCCC1OP(=O)(Nc2ccccc2)OCC1CC (stereo unspecified),inactive: -9.95%
23,O=C(/C=C/c1ccccc1)OC1CN2CCC1CC2 (stereo unspecified),inactive: 2.46%
24,O=P1(Nc2ncccn2)COc2ccccc2OC1,inactive: -3.4%
25,O=[As](O)(c1cccs1)c1cccs1,inactive: 2.34%
26,Cc1ccc(OCC(=O)OC2CN3CCC2CC3)cc1 (stereo unspecified),inactive: 2.55%

row,SMILES,inhibition
1,NS(=O)(=O)c1cccc(NC(=O)COC(=O)C(O)(c2ccccc2)c2ccccc2)c1,inactive: 11.7%
2,O=P1(Nc2ccc(Br)cn2)COc2ccccc2OC1,inactive: -1.08%
3,O=P(Nc1nccs1)(Oc1ccccc1)Oc1ccccc1,inactive: 2.54%
4,CCOP1(=S)c2c(C)nn(CCC#N)c2N=C(c2ccccc2F)N1C (stereo unspecified),inactive: -9.75%
5,O=C(O)COc1ccc([As](=O)(O)O)cc1[N+](=O)[O-],inactive: 1.71%
6,NC(=O)Nc1ccc([As](=O)(O)O)cc1,inactive: 20.4%
7,CN(C(=O)Cc1ccccc1)[C@@H]1CC[C@]2(CCCO2)C[C@H]1N1CCCC1,inactive: 22.3%
8,CCOP1(=S)c2c(C)nn(CCC#N)c2N=C(c2ccc(F)cc2)N1C (stereo unspecified),inactive: 10.2%
9,N#CCCN(C(=O)COC(=O)C(O)(c1ccccc1)c1ccccc1)c1ccc(F)cc1,inactive: -4.65%
10,O=[N+]([O-])c1ccc2c(c1)nnn2O,inactive: 19%
11,O=C(OC1CN2CCC1CC2)c1ccc(Cl)cc1 (stereo unspecified),inactive: 5.96%
12,CS(=O)(=O)c1ccc(Cl)c(NC(=O)COC(=O)C(O)(c2ccccc2)c2ccccc2)c1,inactive: 7.48%
13,O=[As](O)(O)c1cccnc1,inactive: 22.4%
14,COc1cc(C(=O)NCC2(N3CCOCC3)CCCCC2)cc(Cl)c1OC(C)C,inactive: -7.83%
15,O=[As](O)(c1cccc(O)c1)c1cccc(O)c1,inactive: -4.22%
16,Nc1cccc2c([As](=O)(O)O)cccc12,inactive: 23.4%
17,Cc1ccc(NCCc2c([N+](=O)[O-])cc([N+](=O)[O-])cc2[N+](=O)[O-])cc1,inactive: 32.4%
18,CCOP(=O)(Nc1cccc2ccccc12)OCC,inactive: -1.08%
19,O=P1(Nc2nc3ccc(Cl)cc3s2)COc2ccccc2O1 (stereo unspecified),inactive: 5.1%
20,CC(C)(C)C(=O)NC(Sc1ccccc1)C(Cl)(Cl)Cl (stereo unspecified),inactive: -11.4%
21,CCc1cc(O)c([N+](=O)[O-])c(C)c1[N+](=O)[O-],inactive: 2.73%
22,Cc1ccccc1CN(C)C(=O)COC(=O)C(O)(c1ccccc1)c1ccccc1,inactive: -0.25%
23,COC(=O)C1(C)COP(=O)(NCc2ccccc2)OC1 (stereo unspecified),inactive: -2.98%
24,CC(=O)Nc1ccc(Oc2c([N+](=O)[O-])cc([N+](=O)[O-])cc2[N+](=O)[O-])cc1,inactive: 8.97%
25,CC(=O)Nc1ccc([As](=O)(O)O)c(O)c1,inactive: 17.3%
26,CCOC(=O)NC(Sc1ccccc1)C(Cl)(Cl)Cl (stereo unspecified),inactive: -0.6%

row,SMILES,inhibition
1,c1ccc(-c2nn[nH]n2)c(-c2nn[nH]n2)c1,inactive: -1.33%
2,O=C(NC1CCS(=O)(=O)C1)NP(=S)(Oc1ccccc1)Oc1ccccc1 (stereo unspecified),inactive: -0.18%
3,CCNC(=S)/N=C(\N)N[N+](=O)[O-],inactive: -0.55%
4,O=P1(N(CCCl)CCCl)OCCC2CCCCN21 (stereo unspecified),inactive: 1.88%
5,CCC(=O)N1C2C3N(C(=O)CC)C1C1N(C(=O)CC)C(C(N1C(=O)CC)N3C(=O)CC)N2C(=O)CC,inactive: 29.2%
6,COC(=O)c1cc2c(s1)N=C(c1ccccc1)N(C)P2(=O)N1CCOCC1 (stereo unspecified),inactive: -6.29% and inactive: -4.92%
7,O=c1c2cc([N+](=O)[O-])ccc2[nH]c2c([N+](=O)[O-])cc([N+](=O)[O-])cc12,inactive: -11.5%
8,CN(C)C(=O)Oc1noc2ccccc12,inactive: 3.92%
9,Cc1ccccc1OP(=O)(Nc1ccccn1)Oc1ccccc1C,inactive: -0.15%
10,CN(C)C1(CNC(=O)c2ccc(Cl)c(S(N)(=O)=O)c2)CCCCC1,inactive: 0%
11,O=P(Nc1ccccn1)(c1ccc(Br)cc1)c1ccc(Br)cc1,inactive: -3.08%
12,COc1ccc(N)c([N+](=O)[O-])c1[N+](=O)[O-],inactive: 3.74%
13,O=[As](O)(c1ccccc1)c1ccc(O)cc1,inactive: 3.61%
14,O=[N+]([O-])c1ncn(CCn2cnc([N+](=O)[O-])n2)n1,inactive: 15%
15,CC(=O)NC(SC(=S)N(C)C)C(Cl)(Cl)Cl (stereo unspecified),inactive: -4.05%
16,O=[N+]([O-])c1ccc(O)c(/C=N/Nc2ccc([N+](=O)[O-])cc2[N+](=O)[O-])c1,inactive: 1.85%
17,O=C(OC1CN2CCC1CC2)c1cccc(Cl)c1 (stereo unspecified),inactive: -4.18%
18,C(Cc1nn[nH]n1)Cc1nn[nH]n1,inactive: 7.64%
19,O=P(Nc1nccs1)(c1ccccc1)c1ccccc1,inactive: -4.61%
20,c1nnnn1CCn1cnnn1,inactive: -3.36%
21,COc1ccc(C2=NCC(CBr)S2)cc1 (stereo unspecified),inactive: 24.9%
22,O=[N+]([O-])c1cc([N+](=O)[O-])c(CCNc2ccccc2)c([N+](=O)[O-])c1,inactive: 27.7%
23,Cc1ccc(NP(=O)(Oc2ccccc2)Oc2ccccc2)nc1,inactive: -11%
